PubChem BioAssay AID624099 – ICCB-Longwood – 2012
Screen: 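Human genes that papillomavirus E2 requires to repress the HPV18 LCR promoter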 (primary screen). System: human C33A cervical carcinoma cells (HPV-negative) stably expressing BPV1 E2 and an HPV18 LCR luciferase reporter. Reagents: siRNA pool against human genes, 40 nM. Time to read-out: 72 h. Read-out: 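HPV18 LCR reporter light per well, converted to plate-wise z-scores that exclude control wells, and averaged over triplicate plates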. Reading the numbers: mean z-score and z-score: higher = stronger reporter signal, weaker E2 silencing. Hit rule: 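Hit if mean z-score reaches 2 and two or more of three replicate z-scores also reach 2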.
The whole screen tested about 21,000 reagents; shown is an unselected part. Over the whole deposit, 497 (2.4%) got an active call. 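Higher z means weaker E2 silencing; only reporter increases were scored, and knock-downs that hurt cell survival may mask genuine repressor factors.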 Reagent sequences are not shown.

What did the screen give for ZCCHC7 (zinc finger CCHC-type containing 7)?
mean z-score: 1.46; z-score, replicate A: 1.58; z-score, replicate B: 1.2; z-score, replicate C: 1.61; Call: inactive

With PARN (poly(A)-specific ribonuclease), how do the results read?
mean z-score: -0.22; z-score, replicate A: -0.33; z-score, replicate B: -0.34; z-score, replicate C: 0.01; Call: inactive

For ATAD3C (ATPase family AAA domain containing 3C), what was measured?
mean z-score: -0.81; z-score, replicate A: -0.89; z-score, replicate B: -0.73; Call: inactive

What did the screen give for BTF3 (basic transcription factor 3)?
mean z-score: -0.63; z-score, replicate A: -0.48; z-score, replicate B: -0.72; z-score, replicate C: -0.7; Call: inactive

With L1CAM (L1 cell adhesion molecule), how do the results read?
mean z-score: -0.63; z-score, replicate A: -0.26; z-score, replicate B: -0.82; z-score, replicate C: -0.81; Call: inactive

For PYGM (glycogen phosphorylase, muscle associated), what does the deposit list?
mean z-score: -0.4; z-score, replicate A: -0.27; z-score, replicate B: -0.41; z-score, replicate C: -0.52; Call: inactive

How did the screen score DNAAF4 (dynein axonemal assembly factor 4)?
mean z-score: 0.58; z-score, replicate A: 0.49; z-score, replicate B: 0.6; z-score, replicate C: 0.64; Call: inactive

What is on record for SMCO4 (single-pass membrane protein with coiled-coil domains 4)?
mean z-score: -0.37; z-score, replicate A: -0.34; z-score, replicate B: -0.47; z-score, replicate C: -0.29; Call: inactive

How did the screen score TAS2R43 (taste 2 receptor member 43)?
mean z-score: -0.67; z-score, replicate A: -0.4; z-score, replicate B: -0.77; z-score, replicate C: -0.85; Call: inactive

Which result is listed for GSPT1 (G1 to S phase transition 1)?
mean z-score: -2.27; z-score, replicate A: -2.28; z-score, replicate B: -2.15; z-score, replicate C: -2.39; Call: inactive

With LOC388530 (retired record), what does the deposit list?
mean z-score: 1.6; z-score, replicate A: 1.68; z-score, replicate B: 1.63; z-score, replicate C: 1.48; Call: inactive

With SYNPR (synaptoporin), how do the results read?
mean z-score: -0.71; z-score, replicate A: -0.32; z-score, replicate B: -0.81; z-score, replicate C: -0.99; Call: inactive

How did the screen score TTBK2 (tau tubulin kinase 2)?
mean z-score: 0.36; z-score, replicate A: 0.49; z-score, replicate B: -0.01; z-score, replicate C: 0.62; Call: inactive

Which result is listed for KCTD15 (potassium channel tetramerization domain containing 15)?
mean z-score: 0.11; z-score, replicate A: 0.04; z-score, replicate B: 0.44; z-score, replicate C: -0.15; Call: inactive

In a second layout: entries from further up
Target gene,mean z-score,"z-score, replicate A","z-score, replicate B","z-score, replicate C",Call
PARN (poly(A)-specific ribonuclease),-0.22,-0.33,-0.34,0.01,inactive
ATAD3C (ATPase family AAA domain containing 3C),-0.81,-0.89,-0.73,,inactive
